A mixed list of measured activities; the numbers were collected in NIAID ChemDB.

All rows: host cell toxicity; cells: C8166; endpoint: CC50

Rows are shuffled and stem from different studies.

structure | read by | result
CC(=O)N(/C=C/c1ccccc1Br)Cc1c(F)cccc1F | MTT | 172 µM
Oc1cc(O)c2c(c1)O[C@H](c1ccc(O)c(O)c1)[C@H](O)[C@H]2c1c(O)cc2c(c1O)C[C@@H](O)[C@@H](c1ccc(O)c(O)c1)O2 | MTT | >200 µg/mL
NS(=O)(=O)c1ccc(NC(=O)COc2ccc(Cl)cc2NS(=O)(=O)c2ccccc2)cc1 | MTT | 153 µM
O=C(/C=C/c1ccc(O)cc1)O[C@@H]1Cc2c(O)cc(O)cc2O[C@@H]1c1ccc(O)c(O)c1 | MTT | 24.57 µg/mL
C=CCC1(CC=C(C)C)C=C2OCOC2=CC1=O | MTT | 241.1 µM
Cc1cn(-c2ccccc2[N+](=O)[O-])c2ccccc12 | MTT | 14.41 µg/mL
C/C=C(/C)C(=O)O[C@H]1c2cc3c(c4c2C2(CO4)C(=O)C(OC)=C(OC)[C@H]4O[C@@H]([C@@H](C)[C@H]1C)C42O)OCO3 | MTT | 112.4 µg/mL
O=C(O[C@@H]1Cc2c(O)cc(O)cc2O[C@@H]1c1ccc(O)c(O)c1)c1ccccc1 | MTT | 22.9 µg/mL
O=c1c(O[C@@H]2OC[C@H](O)[C@H](O)[C@H]2O)c(-c2ccc(O)c(O)c2)oc2cc(O)cc(O)c12 | - | >100 µg/mL
C=CCOn1c(C=C)nc2c(C)cccc21 | - | 16 µM
CSc1ccc(OP(=O)(OC[C@H]2O[C@@H](n3cc(C)c(=O)[nH]c3=O)C[C@@H]2N=[N+]=[N-])Oc2ccc(SC)cc2)cc1 | - | 500 µM
Cc1cc(S(N)(=O)=O)ccc1NC(=O)COc1ccccc1NS(=O)(=O)c1ccccc1 | MTT | 209 µM
O=C1c2c(O)cc(O)cc2O[C@H](c2ccc(O)c(O)c2)[C@H]1O | MTT | 118.9 µg/mL
Cc1cn([C@H]2C[C@H](N=[N+]=[N-])[C@@H](CO)O2)c(=O)[nH]c1=O | - | >0.004 µg/mL
CC(C)(C)NC(=O)[C@@H]1C[C@@H]2CCCC[C@@H]2CN1C[C@@H](O)[C@H](Cc1ccccc1)NC(=O)[C@H](CC(N)=O)NC(=O)c1ccc2ccccc2n1 | MTT | 27.5 µM
C/C=C/c1ccc(OCC=C(C)C)c(OC)c1 | MTT | 359.6 µM
COc1cc(C(c2ccc3c(c2)OCO3)C(C(=O)O)C(CO)CO)ccc1O | - | 82.1 µg/mL
O=[N+]([O-])c1cccc2c1oc1cc(F)ccc12 | - | >200 µg/mL
Cc1cccc2ccn(-c3ccccc3[N+](=O)[O-])c12 | MTT | >200 µg/mL
COc1cc2c(c(OC)c1OC)-c1c(cc3c(c1OC)OCO3)[C@H](OC(C)=O)[C@H](C)[C@H](C)C2 | MTT | 97.1 µg/mL
Cc1ccc(S(=O)(=O)Nc2cc(Cl)ccc2OCC(=O)Nc2ccc(S(N)(=O)=O)cc2)cc1 | MTT | 196 µM
CCN(/C=C/c1ccccc1Br)C(C)=O | MTT | 358 µM
Nc1nc(Cl)nc2c1ncn2[C@H]1C=C[C@@H](CO)O1 | - | <20 µM
O=C(CN1CCCC1)Nc1ccc(Cc2ccc(NC(=O)CN3CCCC3)cc2)cc1 | - | 73.11 µg/mL
O=[N+]([O-])c1ccc2c(ccn2-c2ccccc2[N+](=O)[O-])c1 | MTT | 99.61 µg/mL
COc1ccc2oc3c([N+](=O)[O-])cccc3c2c1 | - | >200 µg/mL
CN(C)C(=O)[C@@H](NC(=O)Cc1ccccc1)[C@@H]1N[C@@H](C(=O)NCCNC(=O)[C@@H]2N[C@@H]([C@H](NC(=O)Cc3ccccc3)C(=O)N(C)C)SC2(C)C)C(C)(C)S1 | - | >100 µM
O=c1c(O)c(-c2ccc(O)c(O)c2)oc2cc(O)cc(O)c12 | MTT | 87.8 µg/mL
C[C@@H]1O[C@@H](OC[C@H]2O[C@@H](Oc3c(-c4ccc(O)c(O)c4)oc4cc(O)cc(O)c4c3=O)[C@H](O)[C@@H](O)[C@@H]2O)[C@H](O)[C@H](O)[C@H]1O | - | 2880 µM
N#Cc1cccc2c1oc1ccccc12 | - | >200 µg/mL
C=CCOn1c(C=C)nc2ccc(OC)cc21 | - | 80 µM
Cc1cc(S(N)(=O)=O)ccc1NC(=O)COc1ccc(Cl)cc1NS(=O)(=O)c1ccccc1 | MTT | >392 µM
COc1ccc(/C=C/N(C)C(C)=O)c(OC)c1 | MTT | 256 µM
Oc1cc(O)c2c(c1)O[C@H](c1ccc(O)c(O)c1)[C@@H](O)C2 | - | >100 µg/mL
NS(=O)(=O)c1ccc(NC(=O)COc2ccccc2NS(=O)(=O)c2ccccc2)cc1 | MTT | 217 µM
O=C1C[C@@H](c2ccc(O)cc2)Oc2cc(O)cc(O)c21 | - | 10 µg/mL
C/C=C(/C)C(=O)OC1c2cc3c(c4c2[C@](C(=O)C(=O)OC)(CO4)/C(=C\C(=O)OC)C[C@@H](C)[C@H]1C)OCO3 | MTT | >200 µg/mL
CC(C)=CCN1Cc2cc(Cl)cc3[nH]c(=S)n(c23)C[C@@H]1C | - | 62 µM
CC1(C)S[C@H]([C@H](NC(=O)Cc2ccccc2)C(=O)N2CCCCC2)N[C@H]1C(=O)NCCNC(=O)[C@@H]1N[C@@H]([C@H](NC(=O)Cc2ccccc2)C(=O)N2CCCCC2)SC1(C)C | - | >100 µM
CC(C)[C@H](NC(=O)c1ccc2ccccc2n1)C(=O)N[C@@H](Cc1ccccc1)[C@H](O)CN1CC[C@@H](OCc2ccncc2)C[C@H]1C(=O)NC(C)(C)C | MTT | 32 µM
C=CCc1cc2c(c(CC=C(C)C)c1O)OCO2 | MTT | >813 µM
Cc1cn([C@H]2C[C@H](N=[N+]=[N-])[C@@H](CO)O2)c(=O)[nH]c1=O | MTT | 749.9 µM
C/C=C/c1cc(=O)c2c(CC(C)=O)cc(O)cc2o1 | MTT | 200 µg/mL
CC(C)=CCOn1c(C=C(C)C)nc2ccc(C)cc21 | - | 50 µM
O=[N+]([O-])c1cccc2c1oc1ccccc12 | - | >200 µg/mL
CC1(C)S[C@H]([C@H](NC(=O)Cc2ccccc2)C(=O)NCC(F)(F)F)N[C@H]1C(=O)NCCNC(=O)[C@@H]1N[C@@H]([C@H](NC(=O)Cc2ccccc2)C(=O)NCC(F)(F)F)SC1(C)C | - | >100 µM
Cc1ccc(S(=O)(=O)N2CC3(C[C@H]2C(=O)N/N=C/c2ccccc2Cl)SCCS3)cc1 | MTT | 30.3 µM
O=c1[nH]cnc2c1ncn2[C@H]1CC[C@@H](CO)O1 | - | >250 µM
COc1ccc2nc(C=C(C)C)n(OCC=C(C)C)c2c1 | - | 80 µM
Cc1ccnc2c1NC(=O)c1cccnc1N2C1CC1 | - | 321 µM
O=[N+]([O-])c1ccc(-n2ccc3cc([N+](=O)[O-])ccc32)cc1 | MTT | 5.4 µg/mL
CCCCCCCOn1c(CCCCCC)nc2c(C)cccc21 | - | 400 µM
C=CCC1=C[C@@]2(CC=C(C)C)OCOC2=CC1=O | MTT | 292.4 µM
N#Cc1cccc2c1oc1cc(F)ccc12 | - | >200 µg/mL
Cc1cn([C@H]2C[C@H](N=[N+]=[N-])[C@@H](CO)O2)c(=O)[nH]c1=O | - | >1000 µM
O=C(c1ccccc1)c1c(O)cc(O)c([C@@H]2O[C@H](CO)[C@@H](O)[C@H](O)[C@H]2O)c1O | MTT | >200 µg/mL

6 of the rows above, restated:

structure,read by,result
CC(=O)N(/C=C/c1ccccc1Br)Cc1c(F)cccc1F,MTT,172 µM
C=CCC1(CC=C(C)C)C=C2OCOC2=CC1=O,MTT,241.1 µM
Cc1cc(S(N)(=O)=O)ccc1NC(=O)COc1ccc(Cl)cc1NS(=O)(=O)c1ccccc1,MTT,>392 µM
NS(=O)(=O)c1ccc(NC(=O)COc2ccccc2NS(=O)(=O)c2ccccc2)cc1,MTT,217 µM
C=CCc1cc2c(c(CC=C(C)C)c1O)OCO2,MTT,>813 µM
Cc1cccc2ccn(-c3ccccc3[N+](=O)[O-])c12,MTT,>200 µg/mL

An empty or dashed field is not shown. CCn: concentration that lowers growth or viability of the cells by n%.